Compound potency records, mixed from different reports. Data source: NIAID ChemDB in PubChem.

Common to all: whole-cell or culture tests; species: Hepatitis C virus

Fold resistance: result on the changed form divided by that on wild type. Lines come from different laboratories, so protocols vary. Inhibition is in % at the dose shown (toxicity tests: loss of growth or viability). a–b is a range or a potency band. Blank or dashed fields: not listed here. ECn is the concentration giving n% inhibition of infection, replication or growth.

SMILES	setting	strain or isolate	dose	changes	cell line	endpoint	read by	value
CC1CCC(C(=O)N(c2cc(C#CC(C)(C)C)sc2C(=O)O)C2CCC(O)CC2)CC1	-	H77 (GT1a)	-	L419M	Huh7	fold resistance	luciferase	50.9
C[C@@H](NC(=O)C(=O)C(CC1CC1)NC(=O)[C@@H]1C2[C@H](CN1C(=O)[C@@H](NC(=O)NC(C(=O)O)C(C)(C)C)C(C)(C)C)C2(C)C)c1ccccc1	-	-	-	-	-	EC90	replicon	3.5 µM
COc1cc(Cn2cc(CNC(=O)[C@]34CCC(C)(C)CC3C3=CCC5[C@@]6(C)CC[C@H](O)C(C)(C)C6CC[C@@]5(C)[C@]3(C)C[C@H]4O)nn2)c(OC)cc1Cn1cc(CNC(=O)[C@]23CCC(C)(C)CC2C2=CCC4[C@@]5(C)CC[C@H](O)C(C)(C)C5CC[C@@]4(C)[C@]2(C)C[C@H]3O)nn1	-	-	5 µM	-	Huh7	inhibition	luciferase / entry	83.5%
C=CCn1cc(CN2CCC(C(=O)Nc3cccc(-c4cccc(Cl)c4)c3)CC2)c(C)n1	-	JFH-1	15 µM	-	Huh7	inhibition	PCR	≥40%
CC(C)[C@@](C)(NC(=O)N[C@H](C(=O)N1C[C@H]2C([C@H]1C(=O)NC(CC1CC1)C(=O)C(N)=O)C2(C)C)C(C)(C)C)C(=O)OCc1ccccc1	-	-	-	-	-	EC90	replicon	3.4 µM
CCOC(=O)[C@H](C)NP(=O)(OC[C@H]1O[C@@H](n2cc(I)c3c(N)ncnc32)[C@](C)(F)[C@@H]1O)Oc1ccccc1	-	-	-	-	CEM	EC90	replicon	>10 µM
COc1cc([C@@H]2O[C@H](c3cc(OC)c4c(c3)OCO4)[C@@H](C)[C@@H]2C)cc(OC)c1OC	-	Cell culture J6/JFH-1	12.5 µM	-	Huh7.5	inhibition	-	92%
CC(C)(C)[C@H](NC(=O)N[C@H](C(=O)N1C[C@H]2C([C@H]1C(=O)NC(CC1CC1)C(=O)C(N)=O)C2(C)C)C(C)(C)C)C(=O)OC1CCCCC1	-	-	-	-	-	EC90	replicon	2.7 µM
Cc1cc(NC(=O)CCC(=O)N2c3cccc(O)c3NC3=C(C(=O)CC(C)(C)C3)C2c2ccc(OCc3ccccc3)cc2Cl)c2ccccc2n1	-	1b	-	-	-	EC50	luciferase / reporter gene / replicon	12.66 µM
CC(=O)OC[C@]12[C@H](OC(C)=O)[C@H](OCc3ccccc3)[C@@H]3[C@@H](OC(C)=O)[C@@]14O[C@@]3(C)COC(=O)c1cccnc1C(C)C(C)C(=O)O[C@@H]([C@H](OC(C)=O)[C@@H]2OC(C)=O)[C@]4(C)O	-	Subgenomic replicon S52	50 µM	P1220S D1430H S2204I	Huh7.5	inhibition	luciferase	87%
CC1(C)CC(=O)C2=C(C1)Nc1c(O)cccc1N(C(=O)CCC(=O)NCc1cccnc1)C2c1ccc(OCc2ccccc2)cc1Cl	-	1b	-	-	-	EC50	luciferase / reporter gene / replicon	40.42 µM
C=CCNC(=O)C(=O)C(CCCC)NC(=O)[C@@H]1C2[C@H](CN1C(=O)[C@@H](NC(=O)NC(C(=O)O)C(C)(C)C)C(C)(C)C)C2(C)C	-	-	-	-	-	EC90	replicon	10 µM
CC1(C)CC[C@@]2(C(=O)NCCOCCOCCOCCNC(=O)[C@]34CCC(C)(C)CC3C3=CCC5[C@@]6(C)CC[C@H](O)C(C)(C)C6CC[C@@]5(C)[C@]3(C)C[C@H]4O)C(C1)C1=CCC3[C@@]4(C)CC[C@H](O)C(C)(C)C4CC[C@@]3(C)[C@]1(C)C[C@H]2O	-	-	5 µM	-	Huh7	inhibition	luciferase / entry	84.1%
COc1cccc(-c2ccccc2NC(=O)C2CCN(Cc3ccccc3OC)CC2)c1	-	JFH-1	5 µM	-	Huh7	inhibition	PCR	≥40%
CC1(C)CC(=O)C2=C(C1)Nc1c(O)cccc1N(C(=O)CCc1nn[nH]n1)C2c1ccc(Cl)cc1Cl	-	1b	-	-	-	EC50	luciferase / reporter gene / replicon	>100 µM
COc1cc(OCCCCCOc2cccc(NC(N)=S)c2)cc(OC)c1OC	-	-	-	-	Ava5-EG(delta4AB)SEAP	EC50	reporter gene / fluorescence	0.001–1 µM
CC1(C)CC[C@@]2(C(=O)NCc3cn(Cc4ccc(Cn5cc(CNC(=O)[C@]67CCC(C)(C)CC6C6=CCC8[C@@]9(C)CC[C@H](O)C(C)(C)C9CC[C@@]8(C)[C@]6(C)C[C@H]7O)nn5)cc4)nn3)C(C1)C1=CCC3[C@@]4(C)CC[C@H](O)C(C)(C)C4CC[C@@]3(C)[C@]1(C)C[C@H]2O	-	-	1 µM	-	Huh7	inhibition	luciferase / entry	88.9%
Cc1cnccc1NC(=O)CCC(=O)N1c2cccc(O)c2NC2=C(C(=O)CC(C)(C)C2)C1c1ccc(OCc2ccccc2)cc1Cl	-	1b	-	-	-	EC50	luciferase / reporter gene / replicon	5.52 µM
CC1(C)CC[C@@]2(C(=O)NCCCNC(=O)[C@]34CCC(C)(C)CC3C3=CCC5[C@@]6(C)CC[C@H](O)C(C)(C)C6CC[C@@]5(C)[C@]3(C)C[C@H]4O)C(C1)C1=CCC3[C@@]4(C)CC[C@H](O)C(C)(C)C4CC[C@@]3(C)[C@]1(C)C[C@H]2O	-	-	5 µM	-	Huh7	inhibition	luciferase / entry	58.2%
C[C@H]1[C@H](C)CC[C@]2(C(=O)O)CC[C@]3(C)C(=CC[C@@H]4[C@@]5(C)CC[C@H](O)C(C)(C)[C@@H]5CC[C@]43C)[C@H]12	pseudotyped	-	1 µM	-	Huh7	inhibition	luciferase / entry	2.8%
CC(C)(C)C(NC(=O)N[C@H](C(=O)N1C[C@H]2C([C@H]1C(=O)NC(CC1CC1)C(=O)C(N)=O)C2(C)C)C(C)(C)C)C(=O)OCc1ccc(F)cc1	-	-	-	-	-	EC90	replicon	0.1 µM
CC1(C)CC[C@@]2(C(=O)NCc3cn(CCCCn4cc(CNC(=O)[C@]56CCC(C)(C)CC5C5=CCC7[C@@]8(C)CC[C@H](O)C(C)(C)C8CC[C@@]7(C)[C@]5(C)C[C@H]6O)nn4)nn3)C(C1)C1=CCC3[C@@]4(C)CC[C@H](O)C(C)(C)C4CC[C@@]3(C)[C@]1(C)C[C@H]2O	-	-	5 µM	-	Huh7	inhibition	luciferase / entry	69.9%
NC(=S)Nc1cccc(OCCCOc2cccc3ccccc23)c1	-	-	-	-	Ava5-EG(delta4AB)SEAP	EC50	reporter gene / fluorescence	0.001–1 µM
COc1c(-c2ccc3cc(NS(C)(=O)=O)ccc3c2)cc(-n2ccc(=O)[nH]c2=O)cc1C(C)(C)C	-	genotype 1a H77	-	C316Y	Huh7	EC50	luciferase	1.413 µM
CCCCCCNC(=S)Nc1ccc2c(c1)Cc1cc(Br)ccc1-2	-	-	-	-	Ava5-EG(delta4AB)SEAP	EC50	reporter gene / fluorescence	0.001–1 µM
C[C@@]1(F)[C@H](O)[C@@H](CO)O[C@@H]1n1ccc2c(N)nc(N)nc21	-	-	-	-	CEM	EC90	replicon	>10 µM
COc1cccc(-c2cccc(NC(=O)C3CCN(CC=C(C)C)CC3)c2)c1	-	JFH-1	5 µM	-	Huh7	inhibition	PCR	≥40%
CSc1ncc(Br)c(C(=O)N2c3cccc(O)c3NC3=C(C(=O)CC(C)(C)C3)C2c2ccc(OCc3ccccc3)cc2F)n1	-	1b	-	-	-	EC50	luciferase / reporter gene / replicon	1.97 µM
S=C1NCCN1C(=S)Nc1cccc(OCc2ccccc2)c1	-	-	-	-	Ava5-EG(delta4AB)SEAP	EC50	reporter gene / fluorescence	0.001–1 µM
C[C@@]1(F)[C@H](O)[C@@H](CO)O[C@H]1n1ccc(N)nc1=O	-	S282T mutant	-	-	-	EC90	replicon / PCR	23.8 µM
NC(=S)Nc1ccc(OCCCCCc2ccccc2)cc1	-	-	-	-	Ava5-EG(delta4AB)SEAP	EC50	reporter gene / fluorescence	0.001–1 µM
CC1(C)CC[C@@]2(C(=O)NCc3cn(Cc4cccc(Cn5cc(CNC(=O)[C@]67CCC(C)(C)CC6C6=CCC8[C@@]9(C)CC[C@H](O)C(C)(C)C9CC[C@@]8(C)[C@]6(C)C[C@H]7O)nn5)c4)nn3)C(C1)C1=CCC3[C@@]4(C)CC[C@H](O)C(C)(C)C4CC[C@@]3(C)[C@]1(C)C[C@H]2O	-	-	5 µM	-	Huh7	inhibition	luciferase / entry	74.6%
CC(C)OC(=O)N[C@H](C(=O)N1C[C@H](OC(C)(C)C)CC1C(=O)NC(CC1CC1)C(=O)C(=O)NCC(=O)N[C@H](C(=O)N(C)C)c1ccccc1)C(C)(C)C	-	-	-	-	-	EC90	replicon	2 µM
COc1cccc(-c2ccccc2NC(=O)C2CCN(Cc3c(C)cccc3C)CC2)c1	-	JFH-1	15 µM	-	Huh7	inhibition	PCR	≥40%
O=C(N[C@@H](C(=O)N1CCC[C@H]1c1ncc(-c2ccc(-c3ccc(-c4cnc([C@@H]5CCCN5C(=O)[C@H](NC(=O)C5CC5)c5ccccc5)s4)cc3)cc2)s1)c1ccccc1)C1CC1	-	genotype 1b	-	M202L	Huh7.5	fold resistance	luciferase / reporter gene	1
CC1(C)CC[C@]2(C(=O)O)[C@H](O)C[C@]3(C)C(=CC[C@@H]4[C@@]5(C)CC[C@H](O)C(C)(C)[C@@H]5CC[C@]43C)[C@@H]2C1	pseudotyped	-	1 µM	-	Huh7	inhibition	luciferase / entry	7.2%
NC(=S)Nc1cccc(OCCCCCOc2ccccc2-c2ccccc2)c1	-	-	-	-	Ava5-EG(delta4AB)SEAP	EC50	reporter gene / fluorescence	0.001–1 µM
COC(=O)N[C@H](C(=O)N1CCCC1c1ncc(-c2ccc(-c3ccc(-c4cnc([C@@H]5CC(C)CN5C(=O)[C@@H](NC(=O)CO)C(C)C)[nH]4)cc3)cc2)[nH]1)C(C)C	-	1a	-	L31M	Lunet	EC50	luciferase	0.00102 µM
CCC(C)C(NC(=O)NC(C(=O)N1C[C@H]2C([C@H]1C(=O)NC(CC1CC1)C(=O)C(=O)NCC(=O)N[C@H](C(=O)N(C)C)c1ccccc1)C2(C)C)C(C)(C)C)C(=O)O	-	-	-	-	-	EC90	replicon	10 µM
C[C@@]1(F)[C@H](O)[C@@H](CO)O[C@H]1n1cc(I)c2c(N)ncnc21	-	-	-	-	CEM	EC90	replicon	>10 µM
CCN(CC)C(=S)Nc1cccc(OCCCCCOc2ccc(-c3ccccc3)cc2)c1	-	-	-	-	Ava5-EG(delta4AB)SEAP	EC50	reporter gene / fluorescence	0.001–1 µM

The last 5 rows once more:

SMILES	setting	strain or isolate	dose	changes	cell line	endpoint	read by	value
NC(=S)Nc1cccc(OCCCCCOc2ccccc2-c2ccccc2)c1	-	-	-	-	Ava5-EG(delta4AB)SEAP	EC50	reporter gene / fluorescence	0.001–1 µM
COC(=O)N[C@H](C(=O)N1CCCC1c1ncc(-c2ccc(-c3ccc(-c4cnc([C@@H]5CC(C)CN5C(=O)[C@@H](NC(=O)CO)C(C)C)[nH]4)cc3)cc2)[nH]1)C(C)C	-	1a	-	L31M	Lunet	EC50	luciferase	0.00102 µM
CCC(C)C(NC(=O)NC(C(=O)N1C[C@H]2C([C@H]1C(=O)NC(CC1CC1)C(=O)C(=O)NCC(=O)N[C@H](C(=O)N(C)C)c1ccccc1)C2(C)C)C(C)(C)C)C(=O)O	-	-	-	-	-	EC90	replicon	10 µM
C[C@@]1(F)[C@H](O)[C@@H](CO)O[C@H]1n1cc(I)c2c(N)ncnc21	-	-	-	-	CEM	EC90	replicon	>10 µM
CCN(CC)C(=S)Nc1cccc(OCCCCCOc2ccc(-c3ccccc3)cc2)c1	-	-	-	-	Ava5-EG(delta4AB)SEAP	EC50	reporter gene / fluorescence	0.001–1 µM